{"source": "paper PMC5820429", "about": "(Influenza and Other Respiratory Viruses, 2018)", "parameters": "species or system patients", "details": "in vivo"}
{"smiles": "CCOC(=O)C1=C[C@@H](OC(CC)CC)[C@H](NC(C)=O)[C@@H](N)C1", "note": "[oseltamivir]", "values": [{"measurement": "Symptom resolution in patients with emerging resistant virus", "value": "≤ 6", "unit": "days"}]}
